Anti-infective test results gathered from many reports (values: NIAID ChemDB through PubChem).

Shared fields: whole-cell or culture tests; organism: HIV-1; cells: H9; endpoint: EC50

Blank or dashed fields: not listed here. Lines come from different laboratories, so protocols vary. ECn: concentration that inhibits the pathogen or its effect by n%.

| compound | strain | changes | read by | result |
|---|---|---|---|---|
| CC(=O)N[C@H]1[C@H]([C@H](OS(=O)(=O)O)[C@@H](COS(=O)(=O)O)OS(=O)(=O)O)O[C@@](O[C@H]2CC[C@@]3(C)C(=CC[C@H]4[C@@H]5CC[C@H]([C@H](C)CCCC(C)C)[C@@]5(C)CC[C@@H]43)C2)(C(=O)O)C[C@@H]1OS(=O)(=O)O | IIIB |  | p24 | 40 µM |
| COc1ccc(Cc2cc3cc(OC)c(OC)cc3c[n+]2C)cc1OC | IIIB |  | p24 | >100 µg/mL |
| CCCCCCCCCCCCCCCCCCCCCCOCC(C)(COCCCCCCCCCCCCCCCCCCCCCC)CO[C@]1(C(=O)O)C[C@H](OS(=O)(=O)O)[C@@H](NC(C)=O)[C@H]([C@H](OS(=O)(=O)O)[C@@H](COS(=O)(=O)O)OS(=O)(=O)O)O1 | IIIB |  | syncytia | 1 µM |
| Nc1nc(=O)n([C@H]2C[C@H](OC(=O)c3ccccc3)[C@@H](COC(=O)c3ccccc3)O2)cc1-c1cccs1 | IIIB |  | RT activity | >10 µg/mL |
| CCCCCCCCCCCCCCCCCCCCCCCCOC[C@H](CO[C@]1(C(=O)O)C[C@H](OS(=O)(=O)O)[C@@H](NC(C)=O)[C@H]([C@H](OS(=O)(=O)O)[C@@H](COS(=O)(=O)O)OS(=O)(=O)O)O1)OCCCCCCCCCCCCCCCCCCCCCCCC | IIIB |  | p24 | 1 µM |
| Cc1ccc(C(=O)OC[C@H]2O[C@H](n3cc(-c4sccc4C)c(=O)[nH]c3=O)C[C@@H]2OC(=O)c2ccc(C)cc2)cc1 | IIIB |  | RT activity | <1 µg/mL |
| CC(C)=CCC/C(C)=C/CC/C(C)=C/CC/C=C(\C)CC/C=C(\C)CCC=C(C)C | IIIB |  | p24 | 0.744 µg/mL |
| Cc1ccc(C(=O)O[C@H]2C[C@H](n3cc(-c4cccs4)c(N)nc3=O)O[C@@H]2CO)cc1 | IIIB |  | RT activity | >10 µg/mL |
| COc1cc(C[C@@](O)(C(N)=O)[C@H](CO)Cc2ccc(OC)c(OC)c2)ccc1O | IIIB |  | p24 | <1.8 µM |
| Cc1cc(=O)oc2c3c(ccc12)OC(C)(C)[C@H](OC(=O)C12CCC(C)(C(=O)O1)C2(C)C)[C@@H]3OC(=O)C12CCC(C)(C(=O)O1)C2(C)C | IIIB |  | p24 | 0.0059 µM |
| Nc1nc(=O)n([C@@H]2C[C@H](O)[C@@H](CO)O2)cc1-c1ccc(-c2ccccc2)s1 | IIIB |  | RT activity | >10 µg/mL |
| Nc1ncnc2c1ncn2CCOCP(=O)(O)O | HXB2D |  | p24 | 1.2 µM |
| COc1ccc2c(c1)N(C(=O)OC(C)C)[C@@H](CSC)C(=S)N2 | A1(RT-G190E) | RT-G190E | p24 | >10 µg/mL |
| COc1cc(=O)n(C)c2ccccc12 | IIIB |  | p24 | 0.625 µg/mL |
| COc1cc2c(cc1OC)CC[NH+]=C2 | IIIB |  | p24 | <0.1 µg/mL |
| c1cc2c(cc1[C@H]1OC[C@H]3[C@@H]1CO[C@@H]3c1ccc3c(c1)OCO3)OCO2 | IIIB |  | syncytia | <8.2 µM |
| COc1c2ccoc2cc2oc(=O)ccc12 | IIIB |  | p24 | 0.669 µg/mL |
| CCCCCCc1ccsc1-c1cn([C@H]2C[C@H](OC(=O)c3ccc(C)cc3)[C@@H](COC(=O)c3ccc(C)cc3)O2)c(=O)[nH]c1=O | IIIB |  | RT activity | <10 µg/mL |
| Cc1cn([C@H]2C[C@H](N=[N+]=[N-])[C@@H](CO)O2)c(=O)[nH]c1=O | IIIB |  | virus yield | >300 µg/mL |
| COc1ccc([C@@H](CNC(=O)c2ccccc2)OC)cc1 | IIIB |  | p24 | <1.49 µg/mL |
| CCCCCCc1ccsc1-c1cn([C@@H]2C[C@H](OC(=O)c3ccc(C)cc3)[C@@H](COC(=O)c3ccc(C)cc3)O2)c(=O)[nH]c1=O | IIIB |  | RT activity | <1 µg/mL |
| CCCc1nccc2cc(O)c(O)cc12 | IIIB |  | p24 | >2.23 µg/mL |
| CCCCCCCCCCCCCCCCCCCCCCOC[C@H](CO[C@@]1(C(=O)O)C[C@H](OS(=O)(=O)O)[C@@H](NC(C)=O)[C@H]([C@H](OS(=O)(=O)O)[C@@H](COS(=O)(=O)O)OS(=O)(=O)O)O1)OCCCCCCCCCCCCCCCCCCCCCC | IIIB |  | p24 | 2 µM |
| Cc1cn([C@H]2C[C@H](N=[N+]=[N-])[C@@H](CO)O2)c(=O)[nH]c1=O | B9 (RT L100I V106A G190A) | RT-L100I V106A G190A | p24 | 0.03 µg/mL |
| Cc1ccnc2c1NC(=O)c1cccnc1N2C1CC1 | LAI |  | p24 | 0.028 µM |
| CCCCCCCCCCCCCCCCCCCCCCOC[C@H](CO[C@]1(C(=O)O)C[C@H](OS(=O)(=O)O)[C@@H](NC(C)=O)[C@H]([C@H](OS(=O)(=O)O)[C@@H](COS(=O)(=O)O)OS(=O)(=O)O)O1)OCCCCCCCCCCCCCCCCCCCCCC | IIIB |  | p24 | 1 µM |
| COc1cc(CO)c(Cc2c3cc(OC)c(OC)cc3cc[n+]2C)cc1OC | IIIB |  | p24 | >100 µg/mL |
| COc1ccc(C[C@H]2COC(=O)[C@@H]2Cc2ccc(O[C@@H]3O[C@H](CO)[C@@H](O)[C@H](O)[C@H]3O)c(OC)c2)cc1OC | IIIB |  | p24 | <5 µM |
| CCc1c2cc(O)c(O)cc2cc[n+]1C | IIIB |  | p24 | <0.1 µg/mL |
| COc1cc([C@@H]2c3cc4c(cc3[C@H](O)[C@H]3COC(=O)[C@H]23)OCO4)cc(OC)c1OC | IIIB |  | p24 | <0.007 µM |

Repeating the final 3 entries:

compound	strain	changes	read by	result
COc1ccc(C[C@H]2COC(=O)[C@@H]2Cc2ccc(O[C@@H]3O[C@H](CO)[C@@H](O)[C@H](O)[C@H]3O)c(OC)c2)cc1OC	IIIB		p24	<5 µM
CCc1c2cc(O)c(O)cc2cc[n+]1C	IIIB		p24	<0.1 µg/mL
COc1cc([C@@H]2c3cc4c(cc3[C@H](O)[C@H]3COC(=O)[C@H]23)OCO4)cc(OC)c1OC	IIIB		p24	<0.007 µM